Compound potency records, mixed from different reports. Data source: NIAID ChemDB in PubChem.

All rows: host cell toxicity; cells: HepG2; read-out: CC50

An empty or dashed field is not shown. CCn: concentration that lowers growth or viability of the cells by n%. Conditions beyond the fields shown may differ between rows. a–b is a range or a potency band.

Fc1ccc(-c2ccc3c(NCCCNCc4ccco4)ccnc3c2)cc1 ; method: fluorescence ; result: 7.76 µM
CC(C)Nc1nc2c(c(=O)n1-c1cc3n(n1)CCNC3=O)C[C@@H](C)N(C(=O)c1ccc(Cl)c(C(F)(F)F)c1)C2 ; method: luminescence ; result: >50 µM
CC(C)C[C@@H]1NC(=O)[C@H](Cc2c[nH]c3ccccc23)NC(=O)CNC(=O)[C@H](CC(N)=O)NC(=O)[C@H](C(C)C)NC(=O)[C@H](CC(C)C)NC1=O ; method: MTT ; result: >30 µM
CC(C)N(Cc1cccc(OCCCCCC(=O)OC(=O)O)c1)C(=O)c1ccc(-c2ccc3[nH]ccc3c2)cc1 ; result: >20 µM
CCC(C)[C@@H]1NC(=O)[C@@H](CC(C)C)NC(=O)[C@H](CC(C)C)NC(=O)[C@H](Cc2c[nH]c3ccccc23)NC(=O)CNC(=O)[C@H](CC(N)=O)NC1=O ; method: MTT ; result: >30 µM
Cc1cc(NC(=O)c2c(C)c(C(=O)C(=O)NC3(C)CC(O)C3)n(C)c2CC2CC2)ccc1F ; method: MTT ; result: >30 µM
CC(C)N(Cc1cccc(OCCCCCC(=O)OC(=O)O)c1)C(=O)c1ccc(-c2ccoc2)cc1 ; result: >20 µM
Cc1cc(NC(=O)c2c(C)c(C(=O)C(=O)NCC(C)(C)O)n(C)c2C2CC2)ccc1F ; method: MTT ; result: 5–30 µM
CNC(=O)[C@H]1CC[C@@H](n2c(NC(C)C)nc3c(c2=O)C[C@@H](C)N(C(=O)c2ccc(Cl)c(C(F)(F)F)c2)C3)C1 ; method: luminescence ; result: 23.2 µM
CC(C)C[C@@H]1NC(=O)[C@@H](CC(C)C)NC(=O)[C@H](Cc2c[nH]c3ccccc23)NC(=O)CNC(=O)[C@H](CC(N)=O)NC(=O)[C@@H](C(C)C)NC1=O ; method: MTT ; result: >30 µM
CCOC(=O)CCCCCOc1cccc(CNC(C)C)c1 ; result: >20 µM
COc1cccc(CNCCCNc2ccnc3cc(-c4ccccc4)ccc23)c1O ; method: fluorescence ; result: 3.21 µM
CCOC(=O)CCCCCOc1cccc(CN(C(=O)c2ccc(-c3cccc(O)c3)cc2)C(C)C)c1 ; result: >20 µM
Cc1cc(NC(=O)c2c(C)c(C(=O)C(=O)NC3CCc4nnn(C)c4C3)n(C)c2C)ccc1F ; method: MTT ; result: >30 µM
COc1cc2c(cc1OC)C1(CC=CCC1)N(C(C)=O)CC2 ; result: <7.5 µM
CC(=O)N1CC[C@@H](NC(=O)C(=O)c2c(C)c(C(=O)Nc3ccc(F)c(C)c3)c(C)n2C)C(C)(C)C1 ; method: MTT ; result: >30 µM
CCOC(=O)CCCCCOc1cccc(CN(C(=O)c2ccc(-c3ccsc3)cc2)C(C)C)c1 ; result: >20 µM
CC(C)C[C@@H]1NC(=O)[C@H](Cc2c[nH]c3ccccc23)NC(=O)[C@@H](CO)NC(=O)[C@H](CC(N)=O)NC(=O)[C@H](C(C)C)NC(=O)[C@@H](CC(C)C)NC1=O ; method: MTT ; result: >30 µM
COc1cccc(CNCCCNc2ccnc3cc(-c4cc(C(F)(F)F)cc(C(F)(F)F)c4)ccc23)c1O ; method: fluorescence ; result: 0.94 µM
CNC(=O)c1cnc(-n2c(NC(C)C)nc3c(c2=O)C[C@@H](C)N(C(=O)c2ccc(Cl)c(C(F)(F)F)c2)C3)n1C ; method: luminescence ; result: >50 µM
Cc1c(C(=O)Nc2cccc(B(O)O)c2)c(C)n(C)c1C(=O)C(=O)NC(C)(C)C ; method: MTT ; result: >30 µM
COc1cccc(Oc2ccc3c(NCCCNCc4cc(F)ccc4OC)ccnc3c2)c1 ; method: fluorescence ; result: 7.1 µM
Cc1c(C(=O)Nc2ccc(F)c(F)c2)c2n(c1C(=O)C(=O)N[C@@H]1COC[C@H]1N1CCOCC1)CCCC2 ; method: MTT ; result: >30 µM
CN(C)c1cccc(Oc2ccc3c(NCCCNCc4ccco4)ccnc3c2)c1 ; method: fluorescence ; result: 16 µM
CCOC(=O)/C=C1\NCCc2cc3c(cc21)OCO3 ; result: >20 µM
CC(C)C[C@@H]1NC(=O)[C@H](Cc2c[nH]c3ccccc23)NC(=O)[C@@H](CCCCN)NC(=O)[C@H](CC(N)=O)NC(=O)[C@H](CC(C)C)NC(=O)[C@@H](CC(C)C)NC1=O ; method: MTT ; result: >30 µM
Cc1cc(NC(=O)c2c(C)c(C(=O)C(=O)NC3CCC(O)CC3)n(C)c2-c2ccccn2)ccc1F ; method: MTT ; result: >30 µM
CNC(=O)c1ccc(-n2c(C(C)C)nc3c(c2=O)C[C@@H](C)N(C(=O)c2ccc(Cl)c(C(F)(F)F)c2)C3)cc1 ; method: luminescence ; result: >50 µM
Cc1cc(NC(=O)c2c(C)c(C(=O)C(=O)N[C@@H]3CC[C@@H](O)C[C@@H]3F)n(C)c2C)ccc1F ; method: MTT ; result: >30 µM
CC(C)N(Cc1cccc(OCCCCCC(=O)OC(=O)O)c1)C(=O)c1ccc(-c2cccc(C#N)c2)cc1 ; result: >20 µM

The last 4 rows once more:

SMILES | method | result
Cc1cc(NC(=O)c2c(C)c(C(=O)C(=O)NC3CCC(O)CC3)n(C)c2-c2ccccn2)ccc1F | MTT | >30 µM
CNC(=O)c1ccc(-n2c(C(C)C)nc3c(c2=O)C[C@@H](C)N(C(=O)c2ccc(Cl)c(C(F)(F)F)c2)C3)cc1 | luminescence | >50 µM
Cc1cc(NC(=O)c2c(C)c(C(=O)C(=O)N[C@@H]3CC[C@@H](O)C[C@@H]3F)n(C)c2C)ccc1F | MTT | >30 µM
CC(C)N(Cc1cccc(OCCCCCC(=O)OC(=O)O)c1)C(=O)c1ccc(-c2cccc(C#N)c2)cc1 |  | >20 µM